Results taken from US11530514B2, “Method for manufacturing a fibrous web” (Kemira Oyj, priority 2017, dated 2022).

Assay: Example 3: pH and redox of treated process water
Assay type: physicochemical

With OCl [sodium hypochlorite] the pH (untreated 7.6) was 7.7 and the Redox (untreated 165) was 154.
